{
  "sequences": {"note": "Chains of the proteins cited; added tags and fusions are not shown.", "UniProt P08546, whole entry": "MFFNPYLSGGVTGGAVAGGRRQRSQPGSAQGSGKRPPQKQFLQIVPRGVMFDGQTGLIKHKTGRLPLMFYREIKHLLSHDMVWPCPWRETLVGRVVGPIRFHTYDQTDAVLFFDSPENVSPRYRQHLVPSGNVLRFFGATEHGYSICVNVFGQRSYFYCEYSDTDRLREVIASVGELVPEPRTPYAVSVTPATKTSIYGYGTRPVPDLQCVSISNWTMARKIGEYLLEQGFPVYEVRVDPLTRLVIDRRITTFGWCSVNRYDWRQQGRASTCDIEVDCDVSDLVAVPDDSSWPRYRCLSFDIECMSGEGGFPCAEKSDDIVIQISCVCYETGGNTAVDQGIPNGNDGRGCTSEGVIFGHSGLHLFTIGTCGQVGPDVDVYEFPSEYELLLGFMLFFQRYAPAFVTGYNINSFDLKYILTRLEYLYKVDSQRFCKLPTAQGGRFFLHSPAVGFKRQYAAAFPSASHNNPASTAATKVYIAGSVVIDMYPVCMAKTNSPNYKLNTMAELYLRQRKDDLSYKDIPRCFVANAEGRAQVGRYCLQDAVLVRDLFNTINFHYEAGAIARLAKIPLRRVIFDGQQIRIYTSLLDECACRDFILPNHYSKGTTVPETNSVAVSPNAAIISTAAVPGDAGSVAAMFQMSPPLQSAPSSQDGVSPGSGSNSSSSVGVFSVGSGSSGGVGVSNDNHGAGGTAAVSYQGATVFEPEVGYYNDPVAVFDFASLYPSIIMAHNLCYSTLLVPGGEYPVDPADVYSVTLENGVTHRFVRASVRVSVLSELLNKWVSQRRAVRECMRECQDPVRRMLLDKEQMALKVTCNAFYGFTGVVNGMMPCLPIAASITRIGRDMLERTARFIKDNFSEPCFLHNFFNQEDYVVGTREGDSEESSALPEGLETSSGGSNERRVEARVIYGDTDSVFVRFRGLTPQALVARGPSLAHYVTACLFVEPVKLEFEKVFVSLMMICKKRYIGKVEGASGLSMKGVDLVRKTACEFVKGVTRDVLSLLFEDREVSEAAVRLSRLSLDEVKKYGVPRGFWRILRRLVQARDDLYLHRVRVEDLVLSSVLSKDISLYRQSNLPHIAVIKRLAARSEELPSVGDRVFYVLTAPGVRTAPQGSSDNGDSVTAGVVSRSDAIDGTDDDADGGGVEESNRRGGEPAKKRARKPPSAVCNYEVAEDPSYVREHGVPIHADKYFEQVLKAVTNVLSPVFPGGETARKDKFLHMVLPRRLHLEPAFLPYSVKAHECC"},
  "source": "patent US9505775B2",
  "about": "“Inhibitors of cytomegalovirus” (Boehringer Ingelheim International GmbH, priority 2012, dated 2016)",
  "target": "purified recombinant HCMV polymerase from strain AD169 (UL54) (Human cytomegalovirus, UniProt P08546)",
  "assay": "HCMV Polymerase LANCE TR-FRET Assay",
  "format": "biochemical",
  "conditions": "read-out: IC50 (nM) Example B; 2 nM GST-UL54, 37° C. for 30 min",
  "data": [
    {"compound": "Cn1cnc(CCc2cc3c(cc2Cl)N(C(=O)[C@H]2CC(=O)N(c4cccc(C#N)c4)C2)CC3(C)C)c1", "values": [
      {"measurement": "IC50", "value": 350, "unit": "nM"}
    ]}
  ]
}
